Molecular target: DRB1*07:01
Experiment: competitive fluorescence polarization

B1: FNFNGLTGTVLTES (position 541) (peptide)
chain: FNFNGLTGTVLTES
B1 was tested, and the IC50 was 6.08 µM.

Source: patent publication US20220033460A1 (published 2022)
